Results deposited as PubChem BioAssay AID1259414 (Drosophila RNAi Screening Center, 2018).
The deposit covers about 24,000 reagents; shown is an unselected part of those with a known target gene and a result. Over the whole deposit, about 1,210 (5%) were called active. 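Inactive calls also include excluded dsRNAs with several or no targets, genes unexpressed in JW18, and well A1, regardless of score.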 Entries without a mark were called inactive. A plus sign joins genes that one reagent is predicted to hit.

- Assay: 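Fly genes that alter Wolbachia amount inside host cells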 (primary screen)
- System: Drosophila JW18 cells infected with Wolbachia
- Knock-down reagent: long dsRNA against Drosophila genes, 0.25 µg dsRNA per well of a 384-well plate
- Duration: 5 days
- Challenge: cells persistently infected with Wolbachia before knock-down; no added drug
- Measured: 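Automated imaging of bacterial rRNA staining divided by host cell count, reported as plate-normalised robust z-score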
- Reading the numbers: Wolbachia per cell robust z: higher = more Wolbachia per host cell than the plate typical
- Rule for the call: 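Hit when robust z is 1.5 or more, or -1.5 or less, in at least two of three replicates; excludes dsRNAs with several or no targets, genes not expressed in JW18 and well A1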

Knock-down of CG10562 [DRSC14257] resulted in: Wolbachia per cell robust z, rep 1 = 0.395; Wolbachia per cell robust z, rep 2 = -0.515; Wolbachia per cell robust z, rep 3 = 0.927.
Against CG10562 [DRSC29099], the entry reads Wolbachia per cell robust z, rep 1 = 0.706; Wolbachia per cell robust z, rep 2 = -0.378; Wolbachia per cell robust z, rep 3 = 0.00484.
moody [DRSC18515] showed Wolbachia per cell robust z, rep 1 = -0.636 (active); Wolbachia per cell robust z, rep 2 = -7.4; Wolbachia per cell robust z, rep 3 = -3.65.
RhoGAP93B [DRSC15488] gave Wolbachia per cell robust z, rep 1 = -0.549; Wolbachia per cell robust z, rep 2 = 0.575; Wolbachia per cell robust z, rep 3 = 0.541.
Silencing of puf [DRSC23167] gave: Wolbachia per cell robust z, rep 1 = -0.542; Wolbachia per cell robust z, rep 2 = -0.449; Wolbachia per cell robust z, rep 3 = -1.35.
For CG16789 [DRSC15155] the deposit lists Wolbachia per cell robust z, rep 1 = 0.413; Wolbachia per cell robust z, rep 2 = 0.21; Wolbachia per cell robust z, rep 3 = -0.477.
Against Ccn [DRSC09504] the deposit lists Wolbachia per cell robust z, rep 1 = -0.839; Wolbachia per cell robust z, rep 2 = -0.867; Wolbachia per cell robust z, rep 3 = -2.21.
With knock-down of Ccn [DRSC09506], the record shows Wolbachia per cell robust z, rep 1 = -1.47; Wolbachia per cell robust z, rep 2 = 0.0907; Wolbachia per cell robust z, rep 3 = -0.914.
Silencing of Ccn [DRSC10062] came out at: Wolbachia per cell robust z, rep 1 = -2.69; Wolbachia per cell robust z, rep 2 = -0.572; Wolbachia per cell robust z, rep 3 = 0.546.
With knock-down of Ccn [DRSC10063], the screen gave Wolbachia per cell robust z, rep 1 = -0.323; Wolbachia per cell robust z, rep 2 = -0.828; Wolbachia per cell robust z, rep 3 = -1.16.
Zip42C.2 [DRSC05004] gave Wolbachia per cell robust z, rep 1 = -0.19; Wolbachia per cell robust z, rep 2 = -0.631; Wolbachia per cell robust z, rep 3 = -0.289.
For Zip42C.2 [DRSC26644] the deposit lists Wolbachia per cell robust z, rep 1 = -0.289; Wolbachia per cell robust z, rep 2 = -0.729; Wolbachia per cell robust z, rep 3 = -0.677.
For Zip42C.2 [DRSC39021], the values are Wolbachia per cell robust z, rep 1 = -0.841; Wolbachia per cell robust z, rep 2 = 0.909; Wolbachia per cell robust z, rep 3 = -0.632.
Against Ada2b [DRSC16531], the values are Wolbachia per cell robust z, rep 1 = 0.214; Wolbachia per cell robust z, rep 2 = 1.01; Wolbachia per cell robust z, rep 3 = 1.95.
With knock-down of CG2493 [DRSC02707], the screen gave Wolbachia per cell robust z, rep 1 = 0.254; Wolbachia per cell robust z, rep 2 = 0.283; Wolbachia per cell robust z, rep 3 = 0.179.
Depletion of CG2616 [DRSC15440] resulted in: Wolbachia per cell robust z, rep 1 = -2.1; Wolbachia per cell robust z, rep 2 = -0.222; Wolbachia per cell robust z, rep 3 = 1.38.
For CG2616 [DRSC24316], the values are Wolbachia per cell robust z, rep 1 = 2.07; Wolbachia per cell robust z, rep 2 = 0.303; Wolbachia per cell robust z, rep 3 = 0.982.
Silencing of hth [DRSC16967] resulted in: Wolbachia per cell robust z, rep 1 = 0.304; Wolbachia per cell robust z, rep 2 = -0.607; Wolbachia per cell robust z, rep 3 = -0.894.
Silencing of hth [DRSC24749] came out at: Wolbachia per cell robust z, rep 1 = -1.42; Wolbachia per cell robust z, rep 2 = -0.109; Wolbachia per cell robust z, rep 3 = 0.501.
Glos + Gem4b + Gem4c [DRSC18244] scored Wolbachia per cell robust z, rep 1 = 0.869; Wolbachia per cell robust z, rep 2 = 0.246; Wolbachia per cell robust z, rep 3 = 0.881.
Depletion of Mlh1 [DRSC07473] gave: Wolbachia per cell robust z, rep 1 = 0.384; Wolbachia per cell robust z, rep 2 = -0.783; Wolbachia per cell robust z, rep 3 = -0.201.
Against vir [DRSC04377], the entry reads Wolbachia per cell robust z, rep 1 = 0.621; Wolbachia per cell robust z, rep 2 = -0.304; Wolbachia per cell robust z, rep 3 = -0.219.
With knock-down of vir [DRSC26525], the screen gave Wolbachia per cell robust z, rep 1 = 0.822; Wolbachia per cell robust z, rep 2 = 0.336; Wolbachia per cell robust z, rep 3 = 0.762.
CG14075 [DRSC10080] showed Wolbachia per cell robust z, rep 1 = 0.218; Wolbachia per cell robust z, rep 2 = -0.815; Wolbachia per cell robust z, rep 3 = 0.981.

Reagents listed so far with an active call (1):
moody [DRSC18515] — Wolbachia per cell robust z, rep 1: -0.636 (active); Wolbachia per cell robust z, rep 2: -7.4; Wolbachia per cell robust z, rep 3: -3.65
